Test results reported in patent US20040266723A1, “Antiviral agents for treatment of Flaviviridae infections” (priority 2000, published 2004).

Tested on: BVDV
Assay: BVDV real time RT-PCR antiviral assay in MDBK cells
Type: cell-based, Bovine viral diarrhea virus (BVDV), strain NADL
Details: MDBK CC50 24 hrs / antiviral EC90 24 hrs
Method: As one illustration of this method, in the case of BVDV in MDBK cells, in a first step, viral RNA is isolated from 140 μL of the cell culture supernatant by means of a commercially available column (Viral RNA extraction kit, QiaGen, CA). The viral RNA is then eluted from the column to yield a total volume of 60 μL, and subsequently amplified with a quantitative RT-PCR protocol using a suitable primer for the BVDV NADL strain. A quenched fluorescent probe molecule is hybridized to the BVDV DNA, which then undergoes exonucleolytic degradation resulting in a detectable fluorescent signal. Therefore, the RT-PCR amplified DNA was detected in real time by monitoring the presence of fluorescence signals. The TaqMan probe molecule (5′ 6-fam-[…]-tamara 3′ [Sequence ID No. 7] and primers (sense: 5′-[…]-3′ [Sequence ID No. 8]; and antisense: 5′-[…]-3′ [Sequence ID No. 9]) were designed with the aid of the Primer Express software (PE-Applied Biosystems) to be complementary to the BVDV NADL NS5B region. A total of 10 μL of RNA was analyzed in a 50 μL RT-PCR mixture. Reagents and conditions used in quantitative PCR were purchased from PE-Applied Biosystems. The standard curve that was created using the undiluted inoculum virus ranged from 6000 plaque forming units (PFU) to 0.6 PFU per RT-PCR mixture.
Maldin-Darby bovine kidney (MDBK) cells were grown and maintained in a modified eagle medium (DMEM/F12; GibcoBRL), supplemented with 10% heat inactivated horse serum at 37° C. in a humidified, 5% CO2, incubator.
Bovine viral diarrhea virus (BVDV), strain NADL, causes a cytopathogenic effect (CPE) after infection of these cells.
Cells that were not treated with a test compound were considered a negative control, while ribavirin served as a positive control. Viral RNA was extracted and analyzed by real time RT-PCR.
Controls were Ribavirin and the polyoxymetalate HPA-023 in these experiments.

Row | SMILES | Selectivity Index (24 hrs/24 hrs) CC50/EC90
1 | COc1c(C)c2c(c(O)c1CCO)C(=O)OC2 [C2-MPAlcohol, 6-(2-hydroxyethyl)-7-hydroxy-5-methoxy-4-methylphthalan-1-one] | 4
2 | COc1c(C)c2c(c(O)c1CC=O)C(=O)OC2 [C2-MPAld] | 1
3 | COc1c(C)c2c(c(O)c1C/C=C(\C)C=O)C(=O)OC2 [C4-MPAld] | 1
4 | COc1c(C)c2c(c(O)c1C/C=C(\C)CCCOP(=O)(O)CP(=O)(O)OC[C@H]1O[C@@H](n3cnc4c(N)ncnc43)[C@H](O)[C@@H]1O)C(=O)OC2 [C6-MAD] | 1
5 | NC(=O)c1cccc([C@@H]2O[C@H](COP(=O)(O)CP(=O)(O)OCC3OC(n4cnc5c(N)ncnc54)C(F)C3O)[C@@H](O)[C@H]2O)c1 (stereo partly shown) [F-ara-CH2-BAD] | 1
6 | NC(=O)c1ncn([C@H]2O[C@@H](CO)[C@H](O)[C@@H]2O)n1 [L-Ribavirin] | 1
7 | COC(=O)CC/C(C)=C/Cc1c(O)c2c(c(C)c1OC)COC2=O [MPA-O-Me] | >100
